Percent effect of library compounds

Each number is a percent effect as filed.
The controls that fix the scale are not given in the record; negative values are as filed.
The entries come from a sample that favours strong results.
A dash means the value is not listed here; it may have been measured.

A: 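Phenotypic screen: M. tuberculosis growth, glucose 7H9 medium, 3 days; the read-out is not stated. Compounds at 500 µM. Direction is inferred from retests: higher values go with more growth inhibition. About 18,000 compounds were tested under these conditions; 7.9% (about 1,400) showed 50% or more at least once.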
B: 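Growth of Mycobacterium tuberculosis over 4 days (cholesterol / DPPC medium with tyloxapol); the read-out is not stated. Tested at 500 µM. Higher reads as more growth inhibition (inferred: compounds with an IC50 in retests scored well above the rest). About 18,000 compounds were tested under these conditions; 5% (about 900) showed 50% or more at least once.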

| # | SMILES | A | B |
|---|---|---|---|
| 1 | `CCCn1cc(NC(C)CCn2cncn2)cn1` (stereo unspecified) | 31.33 | - |
| 2 | `NC1COCc2ccccc21` (stereo unspecified) | -7.812 | - |
| 3 | `CN(C)c1ccnc(C(=O)NCC(=O)c2ccco2)c1` | - | 27.65 |
| 4 | `c1ccc2[nH]c([C@H]3CCCN3)nc2c1` | - | 9.638 |
| 5 | `Cn1ncc(C(=O)OC2CCOC2)c1-n1cccc1` (stereo unspecified) | -0.9537 | - |
| 6 | `Nc1nnc(SCC(=O)NCCCc2cccnc2)s1` | 13.82 | - |
| 7 | `CCC[C@H](N)C(N)=O` | 20.41 | - |
| 8 | `Cc1ccsc1C(=O)N1CCOc2ccncc21` | 25.85 | - |
| 9 | `NCC1CCN(S(=O)(=O)C2CC2)CC1` | 10.61 | - |
| 10 | `CO[C@@H]1COCC[C@H]1NC(=O)CCCn1cncn1` | - | 11.63 |
| 11 | `Cc1cccnc1NCCNC(=O)Cc1ccsc1` | - | 1.933 |
| 12 | `COC[C@@H]1CNC[C@H]1C(=O)NC1CC1` | -6.785 | - |
| 13 | `CN(CCNC(=O)Nc1cn[nH]c1)C1CCCCC1` | -0.2909 | - |
| 14 | `CCS(=O)(=O)N(C)CCCNc1ccc(Cl)cn1` | 80.45 | 75.35 |
| 15 | `CN1CC[C@H]2CN(C(=O)CCCn3cccn3)C[C@H]21` | 11.12 | - |
| 16 | `COc1cc(CN)cc(Br)c1O` | 5.312 | - |
| 17 | `O=C(NCCCN1CCCC1)c1ccccn1` | 19.83 | - |
| 18 | `O=C(NCCCNCc1ccccc1)c1ccco1` | 7.599 | 14.57 |
| 19 | `NC(=O)C(Cc1ccccc1)NC(=O)c1ccccc1` (stereo unspecified) | - | -22.69 |
| 20 | `c1ccc(CN2CCN(CCC3OCCO3)CC2)nc1` | -0.7494 | - |
| 21 | `COCCN(C)CCCNC(=O)c1cc(Cl)c[nH]1` | - | -3.82 |
| 22 | `CCc1ccc(C(=O)CSc2nnc(N)[nH]2)cc1` | 40.45 | 69.94 |
| 23 | `Cc1c[nH]c(CN(C)C(=O)CN2CCOCC2)n1` | -11.92 | - |
| 24 | `CCC(NC(=O)CCCc1cn[nH]c1)[C@H]1C[C@H](O)C1` (stereo partly specified) | - | -9.262 |
| 25 | `Cc1nsc(C(=O)NCCCn2cccn2)n1` | 45.49 | 26.17 |
| 26 | `CCOCCN1CCN(CC(=O)NCCC#N)CC1` | 7.217 | - |
| 27 | `Cc1nnc(CN2CCCC(C(=O)NCC3CC3)C2)o1` (stereo unspecified) | 2.142 | - |
| 28 | `CCOC(=O)Cn1cnc2sc(C(N)=O)c(C)c2c1=O` | - | -1.917 |
| 29 | `COc1ccc(CN2C[C@@H](O)[C@@H](O)C2)c(Br)c1OC` | 29.42 | 19.07 |
| 30 | `Cc1nocc1C(=O)N1C[C@@H](CO)[C@H](N(C)C)C1` | - | 5.483 |
| 31 | `Cc1cc(C(=O)NCCCO)c2ccc(F)cc2n1` | - | -9.18 |
| 32 | `CCC(O)CNCc1ccccc1` (stereo unspecified) | - | 8.328 |
| 33 | `COc1ccc(NC(=O)CCN2CCCSCC2)cc1` | - | 13.84 |
| 34 | `FCC1CNCCCO1` (stereo unspecified) | -2.581 | - |
| 35 | `O=C(NCc1nnc2n1CCC2)c1sccc1C1CC1` | - | 7.172 |
| 36 | `CN(C)C(=O)C1CCN(Cc2ccc(F)cc2)CC1` | 1.279 | - |
| 37 | `Cc1cc(NC(C)c2ccco2)nc(N)n1` (stereo unspecified) | 53.05 | - |
| 38 | `CNC(=O)CN(C)CCn1c(=O)cc(C)[nH]c1=O` | 6.223 | - |
| 39 | `CC(=O)N1c2ccccc2N(C)CCC1C` (stereo unspecified) | - | -12.25 |
| 40 | `OCC12CCN(CC1)CC2` | - | -13.35 |
| 41 | `CCCNC(=O)N1CCN(Cc2c(C)noc2C)CC1` | 0.3493 | - |
| 42 | `COc1ccc(CC(=O)N2CCN(C)CC2)c(OC)c1` | 11.95 | - |
| 43 | `Nc1cc(CN2CCOC(COCC3CC3)C2)ccn1` (stereo unspecified) | 31.75 | - |
| 44 | `CC(NS(C)(=O)=O)c1nc(C2CC2)n[nH]1` (stereo unspecified) | 9.403 | - |
| 45 | `O=C1NCC(C(=O)Nc2nc(C3CC3)cs2)N1` (stereo unspecified) | - | 8.445 |
| 46 | `COCCN(Cc1cccs1)C(=O)CC1CCNC1` (stereo unspecified) | 65.72 | - |
| 47 | `CNCC(=O)NC(C)c1ccc(F)c(OC)c1` (stereo unspecified) | -0.644 | - |
| 48 | `CC(C)Oc1ccccc1OCCN1CC(O)C1` | - | 3.816 |
| 49 | `O=C(CSCc1ccccc1Cl)N1CCOCC(O)C1` (stereo unspecified) | 33.82 | - |
| 50 | `CC(C)COCC(O)CNC(=O)C1(C#N)CCCC1` (stereo unspecified) | 21.58 | - |
| 51 | `CCCN1CCC(NCc2ncccc2F)CC1` | 22.85 | - |
| 52 | `O=C(CSCC(F)(F)F)N1CCOc2ccncc21` | 11.77 | - |
| 53 | `CN(CCn1cccn1)c1ncccc1S(N)(=O)=O` | 4.563 | - |
| 54 | `CCNC(=O)CCc1ccccc1F` | 20.67 | - |
| 55 | `COCCN(CC(=O)NCc1ccco1)C(C)(C)CO` | - | -4.597 |
| 56 | `O=C(N[C@H]1C[C@@H]2OCC[C@H]12)c1ccc2[nH]nnc2c1` | 4.223 | - |
| 57 | `N#CCCCS(=O)(=O)c1ccc(Cl)cn1` | 18.88 | - |
| 58 | `O=C(Nc1cnccc1O)C1(c2ccccc2)CC1` | -2.331 | - |
| 59 | `N#Cc1cccc(OCCn2cnc(C#N)n2)c1` | 55.93 | - |
| 60 | `COc1c(F)cc(C(=O)NC2CCNC2)cc1F` (stereo unspecified) | - | -3.914 |
| 61 | `COc1cccc(CNC(=O)CCn2ccc(C)n2)c1` | 33.49 | - |

Repeated from the top, 7 entries:

SMILES	A	B
CCCn1cc(NC(C)CCn2cncn2)cn1 (stereo unspecified)	31.33	-
NC1COCc2ccccc21 (stereo unspecified)	-7.812	-
CN(C)c1ccnc(C(=O)NCC(=O)c2ccco2)c1	-	27.65
c1ccc2[nH]c([C@H]3CCCN3)nc2c1	-	9.638
Cn1ncc(C(=O)OC2CCOC2)c1-n1cccc1 (stereo unspecified)	-0.9537	-
Nc1nnc(SCC(=O)NCCCc2cccnc2)s1	13.82	-
CCC[C@H](N)C(N)=O	20.41	-

From ChEMBL document CHEMBL3988442, “University of Dundee, Small-Polar-MMV Screening Library” (2021).